Experimental data from the supplement of paper PMC9931576.
Human monoclonal antibodies against the spike receptor-binding domain (heavy:light variable regions). IC50 against pseudoviruses bearing the spike of naturally observed variants; lower = stronger; >10 µg/ml means not reached at the top dose. No active / inactive call. The stated detection limit is 0.0005 µg/ml; values near or below 0.001 µg/ml lie at the floor of the assay.

Columns and labels:
Test in all cases: pseudovirus neutralization IC50; higher = weaker neutralization
[1] = target: SARS-CoV-2 Omicron BA.1 spike pseudovirus
Method: (§1)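 Single-round VSV luciferase pseudovirus mixed with antibody dilutions for 1 h and put on Huh-7 cells for about a day; IC50 from the dose curve.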

[2] = target: SARS-CoV-2 Omicron BA.2 spike pseudovirus
Method: as §1

[3] = target: SARS-CoV-2 Omicron BA.2.75 spike pseudovirus
Method: as §1

[4] = target: SARS-CoV-2 Omicron BA.5 spike pseudovirus
Method: as §1

[5] = target: SARS-CoV-2 Omicron BQ.1.1 spike pseudovirus
Method: as §1

[6] = target: SARS-CoV-2 Omicron XBB spike pseudovirus
Method: as §1

[7] = target: SARS-CoV-2 early D614G spike pseudovirus
Method: as §1

Binder	pseudovirus neutralization IC50 [1]	pseudovirus neutralization IC50 [2]	pseudovirus neutralization IC50 [3]	pseudovirus neutralization IC50 [4]	pseudovirus neutralization IC50 [5]	pseudovirus neutralization IC50 [6]	pseudovirus neutralization IC50 [7]
BD57-0335 (protein) chain 1: EVQLVESGGGLVKPGGSLRLSCGASGFTFSSYSMNWVRQAPGKGLEWVSSISRSPSYISYADSVKGRFTISRDNTKNSLSLQMDSLRDDDTAVYYCARDGAGGQMGLLYFYYMDVWGKGTTVSVSS chain 2: QSALTQPASVSGSPGQSITISCTGTSSDIGDYNYVSWYQQHPGKAPKLMIYDVSNRPSGVSNRFSGSKSGNTASLTISGLQAEDEANYYCSSYTRSSPLVLFGGGTKLTVL	0.0401 µg/mL	0.0279 µg/mL	0.0317 µg/mL	0.0308 µg/mL	> 10 µg/mL	> 10 µg/mL	0.00588 µg/mL
BD57-0336 (protein) chain 1: QVHLVESGGGVVQPGRSLRLSCAASGFTFRSYGMYWVRQAPGKGLEWVATISYDGDNKNYGDSVKGRFTISRDNSKNTLYLQMNSLRAEDTAVYYCAKRLGQYCSADSCNSAGGYFDYWGLGTLVTVSS chain 2: NFMLTQPHSVSESPGKTVTISCTRSSGSIASNYVQWYQQRPGSAPTSVIHEDNQRASGVPDRFSGSIDSSSNSASLTISGLKTEDEADYYCQSYDNANVVFGGGTKLTVL	> 10 µg/mL	> 10 µg/mL	> 10 µg/mL	> 10 µg/mL	> 10 µg/mL	> 10 µg/mL	1.31 µg/mL
BD57-0340 (protein) chain 1: QVQLVESGGGVVQPGRALRLSCAASGFTFSAYGMHWVRQAPGKGLEWVAVIWYDGNYKYYADSVKGRFTISRDNSKNTLYLQMNSLRAEDTAVYYCARDGNIGWSFPYFDCWGQGTLVTVSS chain 2: SYELTQPPSVSVSPGQTARITCSADTLPNQYAYWYQQKPGQAPVLVIYKDSERPSGIPERFSGSSSGTTITLTISGVQAEDEADYYCQSADSSGTVLVFGGGTKLTVL	0.502 µg/mL	0.717 µg/mL	0.968 µg/mL	1.66 µg/mL	> 10 µg/mL	> 10 µg/mL	0.673 µg/mL
BD57-0361 (protein) chain 1: EVQLVESGGGLVPPGRSLRLSCAASGFTFDDYAMHWVRQAPGKGLEWISGINWNSGDIAYSDSVKGRFTISRDNAKNSLYLQMDSLRARDSALYFCTKARLGELPTGPFDYWGQGTLVTVSS chain 2: QSVLTQPPSASGTPGQRVTISCSGSSSNIGRYTVNWYQHLPGTAPKLLIYLNNHRPSGVPDRFSGSKSGTSGSLAISGLQSEDEADYYCVAWDDSLNGWVFGGGTKLTVL	2.15 µg/mL	3.16 µg/mL	1.47 µg/mL	2.8 µg/mL	2.26 µg/mL	1.82 µg/mL	0.0667 µg/mL
BD57-0363 (protein) chain 1: EVQLVESGGGLVKPGGSLRLSCAASGFTFNNAWMTWVRQAPGKGLEWVGRIKSKTDGGTRDYAAPVKGRFTISRDESKNMLYLQMNSLKTEDTAVYYCATVSSLHFWLIGEDNALDIWGQGTMVTVSS chain 2: EIVLTQSPGTLSLSPGERATLSCRASQSVSSSYLAWYQQKPGQAPRLLIYGSLSRAAGIPDRFSGSGSGTDFTLTISRLEPEDFAVYYCQHYGSSSQTFGQGTKVEIK	3.3 µg/mL	4.28 µg/mL	6.76 µg/mL	6.6 µg/mL	5.72 µg/mL	5.93 µg/mL	> 10 µg/mL
BD57-0365 (protein) chain 1: QMHLVESGGGVVQPGRSLRLSCEASGFTFSTYAMHWVRQAPGKGLEWVAFISSDGTNEYYADSVKGRFSISRDTSKNTLFLQMNSLRPDDTAVYFCAKPGSSGYQHVPDYFDSWGQGTLVTVSS chain 2: SYVLTQPPSVSVAPGKTARITCGGNSIGSKSVHWYQQKPGQAPVVVIFYDNDRPSGIPERFSGSNSGNTATLTISRVEAGDEADYYCQVWDTGVLFGGGTKLTVL	3.24 µg/mL	6.26 µg/mL	7.12 µg/mL	3.88 µg/mL	> 10 µg/mL	3.49 µg/mL	> 10 µg/mL
BD57-0373 (protein) chain 1: QVQLVQSGAEVKKPGSSVKVSCKASGGPFNNYAITWVRQAPGQGLEWMGGIIPIFGTTNYAQKFQGRLTITADEFTSTAFMELSSLRSEDTAVYYCATPFRGAAGQYYYYYMDVWGKGTTVIVSS chain 2: DIQMTQSPSSLSASVGDRVTITCQASQDISNFLNWYQQKPGKAPKLLIYDAYNLETGVPSRFSGSGSGTHFTFTISSLQPEDFATYYCQQYDNVRLTFGGGTKVDIK	0.846 µg/mL	0.89 µg/mL	0.597 µg/mL	1.68 µg/mL	2.05 µg/mL	1.91 µg/mL	4.02 µg/mL
BD57-0375 (protein) chain 1: QMQLAQSGPEVKKPGTSVKVSCKAAAFTFSPSSVQWVRQARGQHLEWIGWIVVASGNTEYAQQFQERVTLSRDMSTGTVYMELSSLRSEDTAVYYCAAPDCNRTTCHDGFDMWGQGTMVIVSS chain 2: EIVLTQSPGTLSLSPGERATLSCRASQSVRSSYFAWYQQKPGQAPRLLIYGASRRATGIPDRFSGNGSGTDFTLTIRRLEPEDFAVYYCQQFGSSPWTFGQGTKVEIK	0.0028 µg/mL	0.00221 µg/mL	0.00276 µg/mL	0.0963 µg/mL	0.452 µg/mL	> 10 µg/mL	0.00129 µg/mL
BD57-0386 (protein) chain 1: EVQLVESGGGLIQPGGSLRLSCAVSGFTVSSNYMSWVRQAPGKGLEWVSVIYSGGSTFYADSVKGRFTISRDHSKNTLYLQMNSLRADDTAVYHCARGLGVPVARRDYDHWGQGTLVTVSS chain 2: DIQMTQSPSSLSASVGDRVTITCQASQDITNSLNWYQQKPGKAPKLLIYDASHLETGVPSRFSGSGSGTDFTFTITSLQPEDIATYYCQQYDNIPPYTFGQGTKLEIK	0.0438 µg/mL	0.00655 µg/mL	0.423 µg/mL	0.00715 µg/mL	4.5 µg/mL	> 10 µg/mL	0.00973 µg/mL
BD57-0394 (protein) chain 1: DVQLVESGGGLIQPGGSLRLSCEVSGFTVSANYMSWVRQARGKGLEWVSIIYPGGSMFYADSVKGRFTISRDKSRDTLYLQMNSLRPEDTAVYYCARGLGVPLATRDYDHWGQGTQVTVSS chain 2: DIQMTQSPSSLSASIGDRVTITCQASQHISNSLNWYQQKPGRAPKLLIYGASNLETGVPSRFSGSGSGTDFTFTISSLQPEDTATYFCQQYDNIPPYTFGQGTKLQIK	0.00293 µg/mL	0.00462 µg/mL	0.00957 µg/mL	0.0037 µg/mL	0.0195 µg/mL	0.0561 µg/mL	0.0061 µg/mL
BD57-0399 (protein) chain 1: QITLKESGPTLVKPTQTLTLTCTFSGFSLSTNGVGVGWIRQSPGKALEWLTLIYWNDDKHYSPSLKSRLTITKDTSKNQVVLTMTNMDPVDTGTYYCAHNLWDGYTGIPFHYWGQGALVTVSS chain 2: DIQMTQSPSSLSASVGDRVTITCRASQSIGTYLSWYQHKPGKAPNLLIYDASTLQGGVPTRFSGSGSGTDFTLTISSLQPEDFATYYCLQTYTFPIFGGGTKVDIK	0.703 µg/mL	0.0566 µg/mL	0.489 µg/mL	0.0616 µg/mL	0.0764 µg/mL	0.238 µg/mL	0.0101 µg/mL
BD57-0400 (protein) chain 1: QVQLVQSGAEVKKPGASVKVSCKASGYTFSNYYLHWVRQAPGQGLEWMGIINPSAGSTSYAQKFQGRLTMTSDTSTNRVYMELSSLRSEDTAVYYCARDLGLVPSAVGLEFWGQGTQVTVSS chain 2: DIQMTQSPSSLSASVGDRVTITCRASQDIRNSLAWYQQQPGKVPKLLIYAASTLQSGVPSRFSGSGSGTDFTLTISTLQPEDVATYYCQKHNSSPPWTFGQGTKVEIK	> 10 µg/mL	> 10 µg/mL	> 10 µg/mL	> 10 µg/mL	> 10 µg/mL	> 10 µg/mL	> 10 µg/mL
